Pooled drug test results. Numbers come from NIAID ChemDB, via PubChem.

Shared fields: host cell toxicity; cell line: H9; endpoint: CC50

Blank or dashed fields: not listed here. CCn: concentration that lowers growth or viability of the cells by n%. Lines come from different laboratories, so protocols vary.

SMILES | method | result
CCCCCCCCCCCCCCCCCCOC[C@H](CO[C@]1(C(=O)O)C[C@H](OS(=O)(=O)O)[C@@H](NC(C)=O)[C@H]([C@H](OS(=O)(=O)O)[C@@H](COS(=O)(=O)O)OS(=O)(=O)O)O1)OCCCCCCCCCCCCCCCCCC | - | >20 µM
CC1(C)CC[C@]2(C(=O)O)CC[C@]3(C)C(=CC[C@@H]4[C@@]5(C)CC[C@H](OC(=O)CC(C)(C)C(=O)O)C(C)(C)[C@@H]5CC[C@]43C)[C@@H]2C1 | - | 19.2 µM
C=C(CC[C@@H](C)[C@H]1CC=C2C3=C([C@@H](O)[C@H](OC(C)=O)[C@@]21C)[C@@]1(C)C[C@@H](OC(=O)CCC(=O)O)[C@H](O)C(C)(C)[C@@H]1CC3)C(C)C | MTT | <6 µM
Nc1nc2c(ncn2[C@@H]2O[C@H](CO)[C@@H](O)[C@H]2O)c(=O)o1 | - | >30 µg/mL
CC(C)[C@@H](NC(=O)C[C@@H]1O[C@@H]1[C@H](Cc1ccccc1)NC(=O)[C@@H](NC(=O)OCc1cccnc1)C(C)(C)S(C)(=O)=O)c1ccccc1 | - | >100 µM
COP(=O)(c1cc(C)cc(CCC#N)c1)c1c(C(N)=O)[nH]c2ccc(Cl)c(F)c12 | MTS | 20 µM
COc1c(OCc2ccccc2)c(OCc2ccccc2)cc(CBr)c1-c1c(CBr)cc(OCc2ccccc2)c(OCc2ccccc2)c1OC | - | 30 µM
C[C@@H]1O[C@H]2O[C@H]3[C@@H](OC[C@@H](O)[C@@H]3O)OC(=O)[C@]34CCC(C)(C)C[C@@]3(C)C3=CC[C@@]5(C)[C@@](C)(CC[C@@H]6[C@](C)(CO)[C@@H](O[C@@H]7O[C@H](CO)[C@@H](O)[C@H](O)[C@H]7O[C@@H]7O[C@@H](C(=O)C[C@](C)(O)CC(=O)O[C@@H]1[C@@H](O[C@@H]1OC[C@@H](O)[C@H](O)[C@H]1O)[C@H]2O)[C@H](O)[C@H](O)[C@H]7O)[C@@H](O)C[C@@]65C)[C@]3(C)CC4 | - | 59 µg/mL
CC(C)[C@@H](NC(=O)C[C@@H]1O[C@@H]1[C@H](Cc1ccccc1)NC(=O)[C@@H](NC(=O)c1ccc2ccccc2n1)C(C)(C)S(C)(=O)=O)c1ccccc1 | - | >100 µM
COc1cc(CO)c(-c2c(CO)cc(OC)c(OC)c2OC)c(OC)c1OC | - | >250 µM
O=[N+]([O-])c1ccc(S(=O)(=O)Nc2cccc3cccnc23)cc1 | ATP | >20 µM
CC(C)[C@@H](NC(=O)C[C@@H]1O[C@@H]1[C@H](Cc1ccccc1)NC(=O)[C@@H](NC(=O)c1cc(=O)c2ccccc2o1)C(C)(C)S(C)(=O)=O)c1ccccc1 | - | >100 µM
Cc1cn([C@H]2C[C@H](N=[N+]=[N-])[C@@H](CO)O2)c(=O)[nH]c1=O | - | >30 µg/mL
O=S(=O)(Nc1cccc2cccnc12)c1ccccc1 | ATP | >20 µM
C[C@H](CCC(=O)O)[C@H]1CC[C@H]2[C@@H]3CC[C@@H]4C[C@H](O)CC[C@]4(C)[C@H]3C[C@H](O)[C@]12C | - | >500 µg/mL
CC1(C)Oc2ccc3ccc(=O)oc3c2[C@@H](OC(=O)C23CCC(C)(C(=O)O2)C3(C)C)[C@H]1OC(=O)C12CCC(C)(C(=O)O1)C2(C)C | - | 35 µM
BrCc1cc(OCc2ccccc2)c(OCc2ccccc2)c(OCc2ccccc2)c1-c1c(CBr)cc(OCc2ccccc2)c(OCc2ccccc2)c1OCc1ccccc1 | - | >100 µM
Cc1c(CC#N)c(=O)oc2c3c(ccc12)OC(C)(C)[C@H](OC(=O)C12CCC(C)(C(=O)O1)C2(C)C)[C@@H]3OC(=O)C12CCC(C)(C(=O)O1)C2(C)C | XTT | >37.04 µM
COc1cc([C@H]2c3c(cc4c(c3OC)OCO4)C[C@H]3COC(=O)[C@@H]32)cc(C)c1OC | - | 194 µM
CCc1cc(NCc2nc3c(C)ccc(C)c3o2)c(=O)[nH]c1C | - | >0.06 µM
C=C(C)[C@@H]1CC[C@]2(C(=O)NCCCCCCCC(=O)N[C@@H](CC(C)C)[C@@H](O)CC(=O)O)CC[C@]3(C)[C@H](CC[C@@H]4[C@@]5(C)CC[C@H](O)C(C)(C)[C@@H]5CC[C@]43C)[C@@H]12 | - | 2.7 µM
C[C@@H]1CC[C@]2(C(=O)O)CC[C@]3(C)C(=CC[C@@H]4[C@@]5(C)CC[C@H](O)C(C)(C)[C@@H]5CC[C@]43C)[C@@H]2[C@]1(C)O | - | 48.9 µM
NC(=O)n1c(O)c(C(=O)c2cccs2)c2cc(Cl)ccc21 | trypan blue | 96 µM
CC(C)[C@@H]1CC[C@]2(C(=O)O)CC[C@]3(C)[C@H](CC[C@@H]4[C@@]5(C)CC[C@H](OC(=O)COCC(=O)O)C(C)(C)[C@@H]5CC[C@]43C)[C@@H]12 | - | 13.1 µM
Nc1ccn([C@@H]2CS[C@H](CO)O2)c(=O)n1 | - | >30 µM
COC(=O)C12OC[C@]34[C@H]([C@@H](O)[C@@H]1O)[C@@]1(C)[C@H](O)C(=O)C(O[C@@H]5O[C@H](CO)[C@@H](O)[C@H](O)[C@H]5O)=C(C)[C@@H]1C[C@H]3OC(=O)[C@H](OC(=O)CC(C)C)[C@@H]24 | - | 4 µM
COc1c2c(cc3c1[C@H](c1ccc(O)c(Oc4ccccc4)c1)[C@H]1C(=O)OC[C@@H]1C3)OCO2 | - | 454 µM
CC1=CCC[C@H]2[C@](C)(Cc3cc(O)ccc3O)[C@@H](C)CC[C@]12C | - | >5 µg/mL
Cc1cn([C@H]2C[C@H](N=[N+]=[N-])[C@@H](CO)O2)c(=O)[nH]c1=O | XTT | 1873 µM
Cc1cn([C@H]2C[C@H](N=[N+]=[N-])[C@@H](CO)O2)c(=O)[nH]c1=O | - | 1871 µM
C=C(CC[C@@H](C)[C@H]1CC=C2C3=C([C@@H](O)[C@H](OC(C)=O)[C@@]21C)[C@@]1(C)C[C@@H](O)[C@H](OS(=O)(=O)O)C(C)(C)[C@@H]1CC3)C(C)C | MTT | <25 µM
Cc1cn(C2C[C@H](CO)[C@@H](CO)C2)c(=O)[nH]c1=O | - | ~100 µg/mL
CCCCCCCCCCCCCCOC[C@H](CO[C@]1(C(=O)O)C[C@H](OS(=O)(=O)O)[C@@H](NC(C)=O)[C@H]([C@H](OS(=O)(=O)O)[C@@H](COS(=O)(=O)O)OS(=O)(=O)O)O1)OCCCCCCCCCCCCCC | - | >200 µM
COc1cc2c(c3oc(=O)c(COC(C)=O)c(C)c13)[C@@H](OC(=O)C13CCC(C)(C(=O)O1)C3(C)C)[C@@H](OC(=O)C13CCC(C)(C(=O)O1)C3(C)C)C(C)(C)O2 | XTT | >33.88 µM
Cc1cn([C@H]2C[C@H](N=[N+]=[N-])[C@@H](CO)O2)c(=O)[nH]c1=O | cell count | 500 µg/mL
C=C(C)[C@@H]1CC[C@]2(COC(=O)CC(C)(C)C(=O)O)CC[C@@H]3[C@H](CC[C@H]4[C@H]3CC[C@H]3C(C)(C)[C@@H](OC(=O)C(C)(C)CC(=O)O)CC[C@]43C)[C@@H]12 | - | 38.6 µM
CCCCCCCCCCCCCCCCCCCCCC(=O)OC[C@H](CO[C@]1(C(=O)O)C[C@H](OS(=O)(=O)O)[C@@H](OS(=O)(=O)O)[C@H]([C@H](OS(=O)(=O)O)[C@@H](COS(=O)(=O)O)OS(=O)(=O)O)O1)OC(=O)CCCCCCCCCCCCCCCCCCCCC | - | >200 µM
OCC(S)CS | - | <5 µg/mL
C=C(C)[C@@H]1CC[C@]2(COC(=O)CC(C)(C)C(=O)O)CC[C@@H]3[C@H](CC[C@H]4[C@H]3CC[C@H]3C(C)(C)[C@@H](OC(=O)CC(C)(C)C(=O)O)CC[C@]43C)[C@@H]12 | - | 33.6 µM
C=C(C)[C@@H]1CC[C@]2(C(=O)NCCCCCCCC(=O)N[C@@H](CC(C)C)[C@@H](O)CC(=O)O)CC[C@]3(C)[C@H](CC[C@@H]4[C@@]5(C)CC[C@H](O)C(C)(C)[C@@H]5CC[C@]43C)[C@@H]12 | - | >2.7 µM
O=S(=O)(Nc1cccc2cccnc12)c1ccc(F)cc1 | ATP | 5.1 µM
NCCCC(NC(=O)CCCCCCCCN=C(N)N)C(O)CCCCCCCCN=C(N)N | - | >1000 µg/mL
COc1c(OCc2ccccc2)c(OCc2ccccc2)cc(CO)c1-c1c(CO)cc(OCc2ccccc2)c(OCc2ccccc2)c1OC | - | >140 µM
CC(C)C(NC(=O)C[C@@H]1O[C@@H]1[C@H](Cc1ccccc1)NC(=O)[C@@H](NC(=O)OCc1ccccc1)C(C)(C)S(C)(=O)=O)C(C)C | - | >100 µM
Nc1nc2c(ncn2[C@H]2C=C[C@@H](CO)C2)c(=O)[nH]1 | - | >2000 µM
CC(C)C(NC(=O)C[C@@H]1O[C@@H]1[C@H](Cc1ccccc1)NC(=O)[C@@H](NC(=O)COc1cccc2cnccc12)C(C)(C)S(C)(=O)=O)C(C)C | - | >100 µM
CC(=O)O[C@H]1[C@H](O)C2=C(CC[C@H]3C(C)(C)[C@@H](OS(=O)(=O)O)[C@H](OC(=O)CCCCCCCCCCCCCCCO)C[C@]23C)C2=CC[C@H]([C@H](C)CCC3(C(C)(C)O)CO3)[C@]21C | MTT | <12 µM
O=S(=O)(Nc1ncnc2nc[nH]c12)c1ccc(F)cc1F | ATP | >20 µM
COc1cc2c(c3oc(=O)ccc13)[C@@H](OC(=O)C13CCC(C)(C(=O)O1)C3(C)C)[C@@H](OC(=O)C13CCC(C)(C(=O)O1)C3(C)C)C(C)(C)O2 | - | >153 µM
O=C1CCC(=O)N1CCCCCCc1ccc2c3cc(CO)ccc3c3cc(CO)ccc3c2c1 | trypan blue | 10 µM
CCN(c1cccc2cccnc12)S(=O)(=O)c1ccc(F)cc1F | ATP | >50 µM
O=c1ccn(C2C[C@H](CO)[C@@H](CO)C2)c(=O)[nH]1 | - | >100 µg/mL
CCc1cc(CCN2C(=O)c3ccccc3C2=O)c(=O)[nH]c1C | - | >0.06 µM
C[C@H]1[C@H](C)CC[C@]2(C(=O)O)CC[C@]3(C)C(=CC[C@@H]4[C@@]5(C)CC[C@H](OC(=O)CC(C)(C)C(=O)O)C(C)(C)[C@@H]5CC[C@]43C)[C@H]12 | - | 49.5 µM

5 of the rows above, restated:

SMILES,method,result
O=S(=O)(Nc1cccc2cccnc12)c1ccccc1,ATP,>20 µM
CCCCCCCCCCCCCCOC[C@H](CO[C@]1(C(=O)O)C[C@H](OS(=O)(=O)O)[C@@H](NC(C)=O)[C@H]([C@H](OS(=O)(=O)O)[C@@H](COS(=O)(=O)O)OS(=O)(=O)O)O1)OCCCCCCCCCCCCCC,-,>200 µM
CCc1cc(CCN2C(=O)c3ccccc3C2=O)c(=O)[nH]c1C,-,>0.06 µM
COc1cc2c(c3oc(=O)ccc13)[C@@H](OC(=O)C13CCC(C)(C(=O)O1)C3(C)C)[C@@H](OC(=O)C13CCC(C)(C(=O)O1)C3(C)C)C(C)(C)O2,-,>153 µM
CC(=O)O[C@H]1[C@H](O)C2=C(CC[C@H]3C(C)(C)[C@@H](OS(=O)(=O)O)[C@H](OC(=O)CCCCCCCCCCCCCCCO)C[C@]23C)C2=CC[C@H]([C@H](C)CCC3(C(C)(C)O)CO3)[C@]21C,MTT,<12 µM